# Source: publication PMC10766536 (The Journal of Antibiotics, 2023)
# By UniProt entry, the sequences of proteins in these tests, tags left out.
# UniProt P11712, whole entry: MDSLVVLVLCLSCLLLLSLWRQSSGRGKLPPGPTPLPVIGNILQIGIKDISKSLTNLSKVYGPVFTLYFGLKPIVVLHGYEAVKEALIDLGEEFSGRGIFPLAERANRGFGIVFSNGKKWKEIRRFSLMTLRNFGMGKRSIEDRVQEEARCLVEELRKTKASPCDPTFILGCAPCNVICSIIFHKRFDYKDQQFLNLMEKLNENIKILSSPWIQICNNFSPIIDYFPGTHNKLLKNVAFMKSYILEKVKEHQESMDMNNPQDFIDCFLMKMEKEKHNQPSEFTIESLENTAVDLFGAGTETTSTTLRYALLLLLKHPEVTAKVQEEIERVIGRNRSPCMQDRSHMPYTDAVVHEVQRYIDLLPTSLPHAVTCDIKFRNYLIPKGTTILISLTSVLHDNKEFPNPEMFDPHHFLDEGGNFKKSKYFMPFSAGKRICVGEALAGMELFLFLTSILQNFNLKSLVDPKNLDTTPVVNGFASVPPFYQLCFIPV
# UniProt P08684, whole entry: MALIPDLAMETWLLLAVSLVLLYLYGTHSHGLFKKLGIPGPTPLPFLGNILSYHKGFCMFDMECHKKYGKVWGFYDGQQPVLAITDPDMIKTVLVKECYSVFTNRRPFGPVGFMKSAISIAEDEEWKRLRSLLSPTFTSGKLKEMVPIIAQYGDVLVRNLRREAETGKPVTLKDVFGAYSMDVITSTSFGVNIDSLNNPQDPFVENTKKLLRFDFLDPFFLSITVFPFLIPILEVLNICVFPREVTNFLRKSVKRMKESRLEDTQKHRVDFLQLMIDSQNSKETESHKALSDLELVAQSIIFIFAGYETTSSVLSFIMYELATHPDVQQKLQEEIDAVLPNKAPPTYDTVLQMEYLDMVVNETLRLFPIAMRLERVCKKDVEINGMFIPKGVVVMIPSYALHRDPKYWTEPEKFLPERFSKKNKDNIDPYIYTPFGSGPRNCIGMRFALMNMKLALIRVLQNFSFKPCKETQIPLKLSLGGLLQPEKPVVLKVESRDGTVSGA
# UniProt P05177, whole entry: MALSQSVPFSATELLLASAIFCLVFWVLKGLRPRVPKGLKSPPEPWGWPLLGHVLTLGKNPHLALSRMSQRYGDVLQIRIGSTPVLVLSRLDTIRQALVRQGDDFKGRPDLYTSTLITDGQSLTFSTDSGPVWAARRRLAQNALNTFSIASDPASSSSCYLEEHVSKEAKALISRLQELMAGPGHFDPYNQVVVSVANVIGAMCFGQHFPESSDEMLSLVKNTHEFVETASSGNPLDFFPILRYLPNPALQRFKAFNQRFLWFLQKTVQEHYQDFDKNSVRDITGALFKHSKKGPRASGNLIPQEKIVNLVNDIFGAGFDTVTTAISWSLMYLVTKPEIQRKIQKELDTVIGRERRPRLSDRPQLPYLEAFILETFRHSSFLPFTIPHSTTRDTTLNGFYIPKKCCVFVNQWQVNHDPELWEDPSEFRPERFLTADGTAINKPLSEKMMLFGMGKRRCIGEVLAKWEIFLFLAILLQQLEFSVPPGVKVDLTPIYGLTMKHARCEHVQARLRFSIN
# UniProt P20813, whole entry: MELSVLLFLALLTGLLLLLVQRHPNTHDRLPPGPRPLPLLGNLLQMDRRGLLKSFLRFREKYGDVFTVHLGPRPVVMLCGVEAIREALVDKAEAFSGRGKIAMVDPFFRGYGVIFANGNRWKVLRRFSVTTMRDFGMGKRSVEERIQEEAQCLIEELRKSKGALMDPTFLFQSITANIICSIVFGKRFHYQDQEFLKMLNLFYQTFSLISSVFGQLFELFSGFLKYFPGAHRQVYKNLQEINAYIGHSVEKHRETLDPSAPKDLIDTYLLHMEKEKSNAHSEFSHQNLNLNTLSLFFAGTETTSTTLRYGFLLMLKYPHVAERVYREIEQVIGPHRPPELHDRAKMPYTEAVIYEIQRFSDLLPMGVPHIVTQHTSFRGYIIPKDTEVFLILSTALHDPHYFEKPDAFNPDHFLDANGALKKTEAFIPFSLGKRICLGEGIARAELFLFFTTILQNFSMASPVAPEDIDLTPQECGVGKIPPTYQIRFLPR
# UniProt P10632, whole entry: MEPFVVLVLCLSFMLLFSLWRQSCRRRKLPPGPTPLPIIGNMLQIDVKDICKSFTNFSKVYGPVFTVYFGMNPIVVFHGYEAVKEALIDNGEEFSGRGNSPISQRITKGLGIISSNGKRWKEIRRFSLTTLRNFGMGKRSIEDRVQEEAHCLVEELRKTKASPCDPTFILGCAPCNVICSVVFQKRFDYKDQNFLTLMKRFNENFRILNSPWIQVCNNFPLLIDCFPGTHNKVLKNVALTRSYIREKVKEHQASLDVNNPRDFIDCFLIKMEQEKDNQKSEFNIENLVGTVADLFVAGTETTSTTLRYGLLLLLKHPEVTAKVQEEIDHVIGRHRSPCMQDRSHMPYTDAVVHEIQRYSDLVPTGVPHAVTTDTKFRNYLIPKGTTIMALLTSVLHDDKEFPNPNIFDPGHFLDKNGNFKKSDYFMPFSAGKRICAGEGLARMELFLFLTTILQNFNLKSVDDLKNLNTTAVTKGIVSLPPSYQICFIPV
# pIC50: −log10 of the molar value. Where “and” joins values, the source holds several entries; their conditions need not be identical. Identical values can stand only once.
# Assays:
# [1] = test system: Salmonella typhimurium AR-0031; assay: S. typhimurium intracellular killing assay in THP-1 macrophages; assay type: cell-based; settings: Salmonella typhimurium AR-0031 in THP-1 macrophages, top conc. 1e−4 M
# Description: (§1) THP-1 monocytic cell line (American Type Culture Collection) was grown in media (RPMI + 10% FBS + 1% Penicillin/Streptomycin), then seeded at a density of 1e5 cells/well in a 96 well plate and differentiated into macrophages for 3 days prior to infection using 200 nM PMA. Overnight culture of S. aureus or S. typhimurium was grown in RPMI or TSB, respectively, washed twice with PBS and resuspended at 1e7 cfu/ml in PBS. THP-1 were washed with warm media (RMPI without FBS) to remove the Penicillin/Streptomycin and then infected with the bacterial suspension at a multiplicity of infection of 10:1 (S. aureus:macrophages) or 5:1 (S. typhimurium:macrophages). Plates were centrifuged at 300 × g for 5 min to synchronize adhesion of the bacteria to the macrophages, then incubated at 37 °C for 2 h for S. aureus infection or 1 h for S. typhimurium infection. Free-floating bacteria were removed by washing twice with warm media and the remaining extracellular bacteria were killed by addition of media containing gentamicin (50 ug/ml). […]
# [2] = test system: Salmonella typhimurium ATCC 14028; assay: as above; assay type: cell-based; settings: Salmonella typhimurium ATCC 14028 in THP-1 macrophages, top conc. 1e−4 M
# Description: as §1
# [3] = test system: S. aureus MRSA strain N315; assay: S. aureus IV advanced disseminated infection mouse model, kidney burden; assay type: in vivo, Balb/c mice
# [4] = test system: S. aureus MRSA strain NRS384; assay: as above; assay type: in vivo, Balb/c mice
# [5] = test system: Salmonella typhimurium AR-0031; assay: S. typhimurium broth killing (growth inhibition) assay; settings: Salmonella typhimurium AR-0031, TSB, 24 h
# [6] = test system: Salmonella typhimurium ATCC 14028; assay: as above; settings: Salmonella typhimurium ATCC 14028, TSB, 24 h
# CYP 2C9 = CYP 2C9 (Homo sapiens, UniProt P11712)
# CYP 3A4 = CYP 3A4 (Homo sapiens, UniProt P08684)
# S. aureus NRS384 [7] = assay: S. aureus broth killing (growth inhibition) assay; settings: S. aureus NRS384, TSB, 24 h, OD600
# [8] = test system: Caco-2: endogenous transporters
# [9] = Toxicokinetics in 2-week IV rat toxicity study; assay type: in vivo
# S. aureus NRS384 [10] = assay: S. aureus intracellular killing assay in THP-1 macrophages; assay type: cell-based; settings: S. aureus NRS384 in THP-1 macrophages, 2 h, top conc. 1e−6 M
# Description: as §1
# CYP 1A2 = CYP 1A2 (Homo sapiens, UniProt P05177); settings: read-out: CYP inhibition IC50; CYP 1A2, substrate Phenacetin; ND = Not Detected
# Sprague Dawley rats = assay: 2-week IV once-a-day toxicity study with 2-week recovery in Sprague Dawley rats; assay type: in vivo
# CYP 2B6 = CYP 2B6 (Homo sapiens, UniProt P20813)
# [11] = Compound stability in CYP induction assay
# CYP 2C8 = CYP 2C8 (Homo sapiens, UniProt P10632); assay: CYP inhibition; settings: read-out: CYP inhibition IC50; CYP 2C8, substrate Amodiaquine; ND = Not Detected
# [12] = 0.002 mg/kg in combination with vancomycin
# [13] = males, combination with vancomycin (1 + 110 mg/kg/day), end of treatment, considered vancomycin-related
# [14] = males, combination with vancomycin, after 14-day recovery period
smiles,measurement,setting,value
CO[C@H]1/C=C/O[C@@]2(C)Oc3c(C)c(O)c4c(=O)c(c5oc6cc(OCCN(C)C)cc(O)c6nc-5c4c3C2=O)NC(=O)/C(C)=C\C=C\[C@H](C)[C@H](O)[C@@H](C)[C@@H](O)[C@@H](C)[C@H](OC(C)=O)[C@@H]1C,Intracellular MIC,[1],30 µM
same,Intracellular MIC,[2],>100 µM
same,bacterial load (kidney),[3]; [12],below the limit of detection
same,S. aureus kidney burden,[3]; 0.002–0.25 mg/kg in combination with vancomycin,to or near the limit of detection
same,bacterial load (kidney),[4]; [12],below the limit of detection
same,S. aureus kidney burden,[4]; 0.01 mg/kg (lowest tested dose) in combination with vancomycin,below the limit of detection
same,bacterial load (kidney),[4]; 0.05 mg/kg in combination with vancomycin,below the limit of detection
same,reduction in S. aureus kidney burden,[4]; 0.25 mg/kg monotherapy,~ 3 logs
same,S. aureus kidney burden,[4]; 0.01–0.25 mg/kg sc single dose in combination with vancomycin,further reduced kidney burden
same,Broth MIC,[5],1 µM
same,Broth MIC,[6],4 µM
same,pIC50,CYP 2C9,5.33
same,pIC50,CYP 3A4,5.57 and 5.67
same,Broth MIC,S. aureus NRS384 [7],0.00391 µM
same,Papp A→B,[8],1.17 ×10⁻⁶ cm/s
same,accumulation following 14 daily doses,[9]; rat IV QD,No apparent accumulation
same,sex difference in exposure,"[9]; rat IV QD 1 mg/kg/day, males vs females",No sex difference
same,dose proportionality of Cmax and AUCtau,[9]; rat IV QD 0.1-10 mg/kg/day,greater than dose proportional
same,AUC or Cmax when coadministered with vancomycin,"[9]; rat IV, 1 + 110 mg/kg/day, compound 5: except Day 1, slightly greater Cmax and AUC",not impacted
same,Intracellular MIC,S. aureus NRS384 [10],0.04 µM
same,pIC50,CYP 1A2,5.69
same,dose with apparent minimal increases in platelet counts in males,Sprague Dawley rats; end of recovery period,≥ 1 mg/kg/day
same,dose with persistent increase in reticulocytes and red blood cell distribution width in males,Sprague Dawley rats; end of recovery period,10 mg/kg/day
same,dose with minimal increases in reticulocyte counts,Sprague Dawley rats; end of treatment period,10 mg/kg/day
same,neutrophils counts,Sprague Dawley rats; [13],mild decreases
same,platelet counts,Sprague Dawley rats; [13],minimal increase
same,"red cell mass parameters (red blood cells, hemoglobin, hematocrit)",Sprague Dawley rats; [13],minimal decreases
same,alanine aminotransferase activity,Sprague Dawley rats; [14],minimal decrease
same,triglyceride concentrations,Sprague Dawley rats; [14],mild increase
same,platelet counts,"Sprague Dawley rats; males, combination with vancomycin, end of recovery period",minimal increases
same,"body weight, body weight gains, food consumption changes","Sprague Dawley rats; rat, IV QD 14 days, alone or in combination with vancomycin","no body weight, body weight gains, or food consumption changes"
same,no-observed-adverse-effect level (NOAEL),"Sprague Dawley rats; rat, IV QD 14 days, highest dose administered",10 mg/kg/day
same,dose with decrease in globulin/increase in albumin/globulin ratio in males,Sprague Dawley rats; still noted at end of 14-day recovery period,1 mg/kg/day
same,pIC50,CYP 2B6,5.53
same,Average % Stability,[11],53.7%
same,pIC50,CYP 2C8,5.70
